Laboratory results taken from patent US20140302217A1, “PRESERVATIVE COMBINATIONS COMPRISING PROPIONIC ACID AND VANILLIN AND/OR CINNAMIC ACID” (Purac Biochem B.V., priority 2011, published 2014).

Assay: sensory / taste experiments

SMILES: CCC(=O)O [propionate, Propionic acid]
- maximum acceptable amount (sensory tests) (in model drinks): approximately 630 ppm
- max acceptable amount (sensory experiments) (in water): 630 ppm
